Assay results published in patent publication US20230312571A1, “RING-MODIFIED PROLINE SHORT PEPTIDE COMPOUND AND USE THEREOF” (priority 2021, published 2023).
Read-outs that look alike come from different tables or passages of the source.

Columns and labels:
coronavirus HCoV OC43 = assay: In vitro anti-coronavirus activity by cytopathic model (CPE, CellTiter Glo); details: HCoV OC43 100 TCID50/well, MRC5 cells, 5 days
Procedure: MRC5 cells and coronavirus HCoV OC43 were purchased from ATCC.
(§1) MRC5 cells were cultured in MEM (Sigma) medium supplemented with 10% fetal bovine serum (Excell), 1% double antibody (Hyclone), 1%L-glutamine (Gibco) and 1% non-essential amino acids (Gibco). MEM (Sigma) medium supplemented with 5% fetal bovine serum (Excell), 1% double antibody (Hyclone), 1% L-glutamine (Gibco) and 1% non-essential amino acid (Gibco) was used as the experimental culture medium.
(§2) Cells were inoculated into a 96 microwell plate at a certain density (Table 6) and cultured overnight in an incubator at 5% CO2 and 37° C. On the second day, the compound was added after doubling dilution (8 concentration points, duplicate wells), with 50 µL per well. Then the diluted virus was added to the cells at 100 TCID50 per well, 50 µL per well. Cell control (cell without compound treatment or virus infection), virus control (cell infected with virus without compound treatment) and culture medium control (only culture medium) were set. […] Cell viability was detected using the cell viability assay kit CellTiter Glo (Promega). […]
(§3) GraphPad Prism was used to perform nonlinear fitting analysis on the inhibition rate and cell viability of the compound, and the half effective concentration (EC50) and half cytotoxic concentration (CC50) of the compound were calculated.

SARS-CoV-2 Mpro = SARS-CoV-2 Mpro (Severe acute respiratory syndrome coronavirus 2 (2019-nCoV) (SARS-CoV-2), UniProt P0DTD1); assay: In vitro anti-novel coronavirus Mpro protease activity (fluorescent substrate cleavage); assay type: biochemical; details: 25 nM Mpro protein, 25 µM substrate
MRC5 cells = assay: Cytotoxicity in the cytopathic model, without virus infection (CellTiter Glo)
Procedure: as §1, §2, §3

| Compound | EC50 (coronavirus HCoV OC43) [nM] | IC50 (SARS-CoV-2 Mpro) [nM] | CC50 (MRC5 cells; MRC5 cells, 5 days, no virus) [nM] | CC50 (MRC5 cells) [nM] |
| --- | --- | --- | --- | --- |
| CC(C)(C)[C@H](NC(=O)C(F)(F)F)C(=O)N1[C@@H]2CC[C@@H](C2)[C@H]1C(=O)N[C@H](C#N)C[C@@H]1CCNC1=O | 191 | 94 | > 10000 |  |
| N#C[C@H](C[C@@H]1CCNC1=O)NC(=O)[C@@H]1[C@H]2CC[C@H](C2)N1C(=O)[C@@H](NC(=O)COc1ccc(F)cc1)C12CC3CC(CC(C3)C1)C2 |  | 119 |  |  |
| CC(C)(C)[C@H](NC(=O)C(F)(F)F)C(=O)N1C[C@@H]2CCC[C@@H]2[C@H]1C(=O)N[C@H](C#N)C[C@@H]1CCNC1=O | 83 |  |  | > 10000 |
